Results of unrelated studies side by side (data: NIAID ChemDB).

All rows: whole-cell or culture tests; organism: Vaccinia virus; read-out: EC50

ECn: concentration that inhibits the pathogen or its effect by n%. Blank or dashed fields: not listed here. Lines come from different laboratories, so protocols vary.

structure,cells,strain,result
Nc1ncnc2c1nc(Cl)n2[C@@H]1O[C@@H]2COP(=O)(O)O[C@H]2[C@H]1O,VERO,,32 µM
O=c1ccn([C@@H]2O[C@H](CO)[C@](O)(C(F)(F)F)[C@H]2O)c(=O)[nH]1,E6SM,,>400 µg/mL
Nc1nc(N)c(Br)c(OCCOCP(=O)(O)O)n1,E6SM,,700 µM
N#Cc1cc([C@H]2C[C@H](O)[C@@H](CO)O2)c(F)cc1F,E6SM,,>400 µg/mL
Cc1cn([C@@H]2CO[C@H](CO)[C@@H](O)C2)c(=O)[nH]c1=O,E6SM,,>20 µg/mL
CC=NC(=N)c1nc(-c2ccc(OC)cc2)n(Cc2ccccc2)n1,E6SM,,>40 µg/mL
C#Cc1nc(Cl)c2ncn([C@@H]3O[C@H](CO)[C@@H](O)[C@H]3O)c2n1,HFF,,>0.8 µg/mL
Nc1nc2c(ncn2COC(CO)CO)c(=O)[nH]1,HeLa,P71,>400 µg/mL
O=c1ccn(COCCO)c(=O)[nH]1,PRK,,>400 µg/mL
CC(=O)OC[C@H]1O[C@@H](OC(=O)NS(=O)(=O)OC[C@H]2O[C@@H](n3ccc(=O)[nH]c3=O)[C@H](OC(C)C)[C@@H]2OC(C)C)[C@@H](OC(C)=O)[C@@H](OC(C)=O)[C@@H]1OC(C)=O,VERO,,>100 µg/mL
CC1(C)[C@@H](CCO)C[C@H]1n1nnc2c(N)ncnc21,E6SM,,70 µg/mL
CO[C@H]1[C@H](O)[C@@H](CO)O[C@H]1n1ccc(N)nc1=O,PRK,,200 µg/mL
CN(C)Cc1cn([C@H]2C[C@H](O)[C@@H](CO)O2)c(=O)[nH]c1=O,HSF,,>200 µg/mL
CC(=O)O[C@H]1C[C@H](n2cc(C)c(=O)[nH]c2=O)O[C@@H]1COS(=O)(=O)NC(=O)O[C@H]1O[C@H](COC(=O)c2ccccc2)[C@@H](OC(=O)c2ccccc2)[C@H](OC(=O)c2ccccc2)[C@H]1OC(=O)c1ccccc1,VERO,,>200 µg/mL
O=c1[nH]cnc2c1ncn2[C@@H]1C=C(CO)[C@@H](O)[C@H]1O,VERO,VAC,>100 µg/mL
CC=NC(=N)c1nc(-c2cccc(OC)c2)n(Cc2ccccc2)n1,E6SM,,>10 µg/mL
CC(=O)OC[C@H]1O[C@H](OC(=O)NS(=O)(=O)OC[C@H]2O[C@@H](n3ccc(=O)[nH]c3=O)[C@H](OC(C)C)[C@@H]2OC(C)C)[C@H](OC(C)=O)[C@@H](OC(C)=O)[C@@H]1OC(C)=O,VERO,,>100 µg/mL
O=c1[nH]n2c(-c3cn(-c4ccccc4)nc3-c3ccccc3)nnc2sc1=O,HEL,,>80 µg/mL
Nc1nc(Cl)c2ncn([C@H]3CO[C@@H](CO)C3)c2n1,E6SM,,300 µg/mL
CC=NC(=N)c1nc(-c2ccc(C)cc2)n(COCCO)n1,E6SM,,>10 µg/mL
CC1(C)[C@@H](CCO)C[C@H]1n1nnc2c(=O)[nH]cnc21,E6SM,,70 µg/mL
OC[C@H]1O[C@@H](c2cc(F)c(F)cc2F)C[C@@H]1O,E6SM,,>400 µg/mL
CCc1nc2c(N)ncnc2n1[C@@H]1O[C@H](CO)[C@@H](O)[C@H]1O,E6SM,,70 µg/mL
CC=NC(=N)c1nc(-c2cccc(C)c2)n(COCCO)n1,E6SM,,>10 µg/mL
COC(=O)[C@H](C)NP(=O)(OC[C@H]1O[C@@H](n2cc(/C=C/Br)c(=O)[nH]c2=O)C[C@@H]1O)Oc1ccc(Cl)cc1,E6SM,,0.128 µM
Nc1ccn([C@@H]2O[C@H](CO)[C@@H](O)[C@@H]2O)c(=O)n1,Primary rabbit kidney cells,,0.04 µg/mL
Nc1ccn([C@H]2C[C@@H](O)[C@H](CO)O2)c(=O)n1,VERO B,,>10 µM
Nc1ncnc2c1ncn2[C@@H]1CC[C@@H](O)[C@H]1O,L929,,0.17 µM
Cc1cn([C@H]2CO[C@H](CO)[C@@H](O)C2)c(=O)[nH]c1=O,E6SM,,>20 µg/mL
CO[C@H](CO)[C@@H](O)CCn1cnc2c(N)ncnc21,E6SM,,>400 µg/mL
Nc1ncnc2c1ncn2[C@@H]1C=C(CO)[C@@H](O)[C@H]1O,VERO,VAC,>100 µg/mL
CCCc1cn([C@H]2C[C@H](O)[C@@H](CO)O2)c(=O)[nH]c1=O,Primary rabbit kidney cells,,≥200 µg/mL
CCOc1cc(O)c(C(=O)/C=C/c2ccc(OC)cc2)c(OC)c1,HeLa,Rister,>3 µg/mL
Nc1nc(=O)n([C@@H]2C=C(CO)[C@@H](O)[C@H]2O)cc1Cl,,Copenhagen,>100 µg/mL
O=c1[nH]c(C#CCF)nc2c1ncn2[C@@H]1O[C@H](CO)[C@@H](O)[C@H]1O,HFF,,>20 µg/mL
CC1(CO)CCC(Cc2nc3ncnc(N)c3[nH]2)C1(C)C,E6SM,,100 µg/mL
CC1(C)[C@@H](CO)CC[C@@]1(C)Cn1nnc2c(N)ncnc21,E6SM,,>400 µg/mL
Nc1ncnc2c1ncn2CC[C@H](O)CCO,E6SM,,>400 µg/mL
O=Cc1cn([C@H]2C[C@H](O)[C@@H](CO)O2)c(=O)[nH]c1=O,PRK,,0.2 µg/mL
C=C(N=CC)c1nc(-c2ccc(OC)cc2)n(C2O[C@H](CO)[C@@H](O)[C@H](O)[C@H]2O)n1,E6SM,,>200 µg/mL
Nc1nc2c(nc(N3CCCCC3)n2COCCO)c(=O)[nH]1,PRK,,>400 µg/mL
CC(C)CS[C@@H]1C=C[C@H](n2cnc3c(N)ncnc32)C1,E6SM,,>16 µg/mL
OC[C@H]1O[C@@H](c2ccccc2)[C@H](O)[C@@H]1O,E6SM,,>400 µg/mL
S=c1[nH]n2c(-c3cn(-c4ccccc4)nc3-c3ccccc3)nnc2s1,HEL,,>80 µg/mL
O=c1cc(O)ccn1COCCO,PRK,,>400 µg/mL
CC1(CO)CCC(Cn2nnc3c(Cl)ncnc32)C1(C)C,E6SM,,70 µg/mL
Cc1cn([C@H]2C/C(=N\O)[C@@H](CO)O2)c(=O)[nH]c1=O,E6SM,,>200 µg/mL
O=C(Nn1c(-c2cn(-c3ccccc3)nc2-c2ccccc2)n[nH]c1=S)c1ccccc1,HEL,,>16 µg/mL
Nc1ncnc2c1ncn2[C@@H]1O[C@H](CO)[C@](O)(C(F)(F)F)[C@H]1O,E6SM,,100 µg/mL
O=C(NS(=O)(=O)OC[C@H]1O[C@@H](n2ccc(=O)[nH]c2=O)[C@H](O)[C@@H]1O)O[C@H]1O[C@H](COC(=O)c2ccccc2)[C@@H](OC(=O)c2ccccc2)[C@H](OC(=O)c2ccccc2)[C@H]1OC(=O)c1ccccc1,VERO,,25 µg/mL
COC(=O)[C@H]1[C@@H]2C[C@@H](O[C@@H]3O[C@H](C)[C@@H](O)[C@H](N)[C@@H]3O)/C=C/C=C/C=C/C=C/C=C/C=C/C=C/[C@H](C)[C@@H](O)[C@H](C)[C@H](C)OC(=O)C[C@H](O)C[C@H](O)[C@@H](O)CC[C@H](O)C[C@H](O)C[C@](O)(C[C@@H]1O)O2,HFF,,5 µg/mL
CO[C@H](CO)[C@@H](O)CCn1ccc(N)nc1=O,E6SM,,>400 µg/mL
Nc1nc(N)c2ncn([C@H]3CO[C@H](CO)[C@@H](O)C3)c2n1,E6SM,,>20 µg/mL
Cc1cc([C@@H]2C[C@H](O)[C@@H](CO)O2)c(Cl)cc1F,E6SM,,>400 µg/mL
Nn1c(-c2cn(-c3ccccc3)nc2-c2ccccc2)n[nH]c1=S,HEL,,>80 µg/mL
O=c1[nH]c(=O)n([C@H]2C[C@H](O)[C@@H](CO)O2)cc1-c1ccc(Cl)o1,HEL,,45 µg/mL
CCCCCCCCCC(=O)O[C@@H]1[C@@H]2Oc3nc(=N)ccn3[C@@H]2O[C@@H]1CO,HeLa,IHD,0.062 µg/mL
CC(C)O[C@@H]1[C@H](OC(C)C)[C@@H](COS(=O)(=O)NC(=O)O[C@H]2O[C@H](COC(=O)c3ccccc3)[C@H](OC(=O)c3ccccc3)[C@H](OC(=O)c3ccccc3)[C@H]2OC(=O)c2ccccc2)O[C@H]1n1ccc(=O)[nH]c1=O,VERO,,46 µg/mL
O=c1[nH]c(=O)n([C@H]2C[C@H](O)[C@@H](CO)O2)cc1/C=C/Br,E6SM,,0.384 µM
Nc1ccn([C@@H]2O[C@H](CO)[C@@H](O)[C@@H]2O)c(=O)n1,VERO,,0.34 µM
CC1(C)[C@@H](CCO)C[C@H]1n1cnc2c(=O)[nH]cnc21,E6SM,,>400 µg/mL
Clc1ccc(CCCCCOc2ccc(C3=NCCO3)cc2)s1,VERO,,30 µM
Nc1nc(=O)n([C@@H]2O[C@H](COP(=O)([O-])[O-])[C@@H](O)[C@H]2O)cc1F,VERO,,9 µM
CC=NC(=N)c1nc(-c2ccc(C)cc2)n(C/C=C/c2ccccc2)n1,E6SM,,>4 µg/mL
OC[C@H]1O[C@H](c2cc(Br)c(F)cc2F)C[C@@H]1O,E6SM,,>400 µg/mL
Nc1nc2c(ncn2[C@H]2CO[C@@H](CO)C2)c(=O)[nH]1,E6SM,,>400 µg/mL
Cc1nc2c(=O)[nH]c(N)nc2n1COCCO,PRK,,>400 µg/mL
CC1(C)[C@@H](CO)CC[C@@]1(C)Cn1cnc2c(=O)[nH]cnc21,E6SM,,>400 µg/mL
Nc1ncnc2c1ncn2[C@H]1C[C@@H](O)[C@H](CO)O1,VERO B,,>1000 µM
Nc1cc([C@H]2C[C@H](O)[C@@H](CO)O2)c(F)cc1F,E6SM,,>400 µg/mL
CC(=O)OC[C@H]1O[C@@H](c2ccccc2)C[C@@H]1OC(C)=O,E6SM,,>400 µg/mL
Nc1nc(=O)n(COCCO)cc1[N+](=O)[O-],PRK,,>400 µg/mL
Nc1cc(OC[C@H](CO)OCP(=O)(O)O)nc(N)n1,E6SM,,6.5 µM
O=c1[nH]c(=O)n([C@@H]2C[C@H](O)[C@@H](CO)O2)cc1-c1cccs1,HEL,,>200 µg/mL
COC[C@H]1O[C@@H](n2ccc(N)nc2=O)[C@@H](O)[C@@H]1O,PRK,,10 µg/mL
Nc1ncnc2c1ncn2[C@H]1COC[C@@H](CO)O1,L1210,,>30 µM
CC1(CO)CCC(Cn2nnc3c(=O)[nH]cnc32)C1(C)C,E6SM,,>200 µg/mL
Nc1ncnc2c1ncn2C[C@@H](CO)OCP(=O)(O)O,VERO,,7 µM
CSCc1cn([C@H]2C[C@H](O)[C@@H](CO)O2)c(=O)[nH]c1=O,HSF,,7 µg/mL
CC1(C)[C@@H](CO)CC[C@@]1(C)Cn1cc(Br)c(=O)[nH]c1=O,E6SM,,>400 µg/mL
O=c1[nH]c(=O)n([C@H]2C[C@H](O)[C@@H](CO)O2)cc1-c1ccco1,HEL,,7 µg/mL
Nc1ccn([C@@H]2C=C(CO)[C@@H](O)[C@H]2O)c(=O)n1,,Copenhagen,0.12 µg/mL
Cn1cc(CCCCOc2ccc(C3=NCCO3)cc2)cc1C=O,VERO,,>280 µM

For reference, 12 entries again:

| structure | cells | strain | result |
|---|---|---|---|
| Nc1nc2c(ncn2COC(CO)CO)c(=O)[nH]1 | HeLa | P71 | >400 µg/mL |
| CC1(C)[C@@H](CO)CC[C@@]1(C)Cn1cc(Br)c(=O)[nH]c1=O | E6SM |  | >400 µg/mL |
| COC(=O)[C@H]1[C@@H]2C[C@@H](O[C@@H]3O[C@H](C)[C@@H](O)[C@H](N)[C@@H]3O)/C=C/C=C/C=C/C=C/C=C/C=C/C=C/[C@H](C)[C@@H](O)[C@H](C)[C@H](C)OC(=O)C[C@H](O)C[C@H](O)[C@@H](O)CC[C@H](O)C[C@H](O)C[C@](O)(C[C@@H]1O)O2 | HFF |  | 5 µg/mL |
| Nc1ncnc2c1nc(Cl)n2[C@@H]1O[C@@H]2COP(=O)(O)O[C@H]2[C@H]1O | VERO |  | 32 µM |
| Nc1ncnc2c1ncn2[C@@H]1CC[C@@H](O)[C@H]1O | L929 |  | 0.17 µM |
| CC(C)CS[C@@H]1C=C[C@H](n2cnc3c(N)ncnc32)C1 | E6SM |  | >16 µg/mL |
| CC1(C)[C@@H](CCO)C[C@H]1n1nnc2c(N)ncnc21 | E6SM |  | 70 µg/mL |
| CC=NC(=N)c1nc(-c2ccc(OC)cc2)n(Cc2ccccc2)n1 | E6SM |  | >40 µg/mL |
| Nc1ncnc2c1ncn2[C@H]1COC[C@@H](CO)O1 | L1210 |  | >30 µM |
| Nc1ncnc2c1ncn2[C@H]1C[C@@H](O)[C@H](CO)O1 | VERO B |  | >1000 µM |
| CC1(CO)CCC(Cn2nnc3c(=O)[nH]cnc32)C1(C)C | E6SM |  | >200 µg/mL |
| O=c1[nH]c(C#CCF)nc2c1ncn2[C@@H]1O[C@H](CO)[C@@H](O)[C@H]1O | HFF |  | >20 µg/mL |